The target of this assay is Neuraminidase (Influenza A virus, UniProt B4URF0). Put plainly: Inhibition of oseltamivir-resistant Influenza Virus A/342/0 (H1N1) neuraminidase at 100 nM.

Structures are written as SMILES.

Regarding `CCOC(=O)C1=C[C@@H](OC(CC)CC)[C@H](NC(C)=O)[C@@H](N)C1`, the IC50 result is “Not Active”.

The values above are taken from ChEMBL document CHEMBL1154750 (J Med Chem, 2010).
